Test results as given in PubChem BioAssay AID588497 (NMMLSC, 2011).
The list shows a part of the results, in another mix than the full data. Records with an inconclusive call do not appear. Calls of active or inactive are those of the source. Rule as the data show it: active = inhibition above about 35% (passing the limit was not always enough); inconclusive = no clear call, values can overlap the other calls.

What follows are compounds tested on Botulinum neurotoxin type F light chain protease (Clostridium botulinum) (assay: BoNT/F light chain protease inhibitors, primary screen, biochemical, flow cytometry, MLPCN library (AID 588497; also: plate controls were buffer without enzyme for full effect and enzyme alone for no effect)). Conditions: Multiplex microsphere protease cleavage assay, at 10 µM, active compounds read high.
`CC(C)(C)OC(=O)N1CCC(Nc2ccccc2)CC1` was tested, and the inhibition was inactive: -12.3%. In the case of `O=C(O)C1(Nc2ccccc2)CCN(Cc2ccccc2)CC1`, the inhibition is reported as inactive: -6.4%. `NN(c1ccccc1)C1CCN(CCc2ccccc2)CC1` was tested, and the inhibition was inactive: -15.2%. `O=c1[nH]c2ccccc2n1C1CCN(C(c2cc3ccccc3o2)c2nnnn2C2CCCC2)CC1` (centres undefined) was tested, and the inhibition was inactive: -13.4%. For `CCCOc1ccc(C(=O)NCC2(N(C)C)CCCCC2)cc1`, the inhibition was inactive: -1.8%. `CCOc1ncccc1C(=O)NCC1(N2CCOCC2)CCCCC1` was tested, and the inhibition was inactive: -2.6%. `CN1CCC(Nc2ccc(F)c(Cl)c2)CC1` was tested, and the inhibition was active: 37.6%. For `CN1CCC(Nc2ccc(Cl)cc2)CC1`, the inhibition was inactive: -17.4%. With `COc1cccc(C(c2nnnn2C2CCCC2)N2CCC(n3c(=O)[nH]c4ccccc43)CC2)c1OC` (centres undefined) the inhibition was inactive: 0.7%. `COc1cc(OC)cc(C(=O)NCC2(N3CCOCC3)CCCCC2)c1` was tested, and the inhibition was inactive: 0.3%. In the case of `COc1cccc(C(=O)N(c2cc(C)cc(C)c2)C2CCN(C(=O)OC(C)(C)C)CC2)c1`, the inhibition is reported as inactive: 10.2%. For `CCC(CO)(C(=O)OC1CN2CCC1CC2)c1ccccc1` (centres undefined), the inhibition was inactive: 6.2%. `Cc1ccc(C(=O)NCC2(N3CCCCC3)CCCCC2)o1` was tested, and the inhibition was inactive: 8.3%. In the case of `Fc1ccccc1NC1CCN(Cc2ccccc2)CC1`, the inhibition is reported as inactive: -0.5%. For `Cc1ccc(NC2(C#N)CCN(Cc3ccccc3)CC2)cc1`, the inhibition was inactive: -2%. With `COc1cccc(C(c2nnnn2C2CCCCC2)N2CCC(n3c(=O)[nH]c4ccccc43)CC2)c1OC` (centres undefined) the inhibition was inactive: 0.7%. With `CC(=O)N(c1ccccc1)C1CCNCC1` the inhibition was inactive: 2.4%. For `CCC(c1nnnn1C1CCCCC1)N1CCC(n2c(=O)[nH]c3ccccc32)CC1` (centres undefined), the inhibition was inactive: 6.1%. For `COc1cc(OC)cc(C(=O)NCC2(N3CCCCC3)CCCCC2)c1`, the inhibition was inactive: 7.7%. For `O=c1[nH]c2ccccc2n1C1CCN(C(c2ccnc3ccccc23)c2nnnn2C2CCCCC2)CC1` (centres undefined), the inhibition was inactive: -3.2%. For `O=C(NCC1(N2CCCCC2)CCCCC1)c1ccco1`, the inhibition was inactive: -4%. For `CN(C)c1ccc(C(=O)NCC2(N3CCCCC3)CCCCC2)cc1`, the inhibition was inactive: 0.4%. In the case of `Cn1c(=O)[nH]cc(N(CCCl)CCCl)c1=O`, the inhibition is reported as inactive: 1.5%. With `Cc1ccccc1NC1(C#N)CCN(Cc2ccccc2)CC1` the inhibition was inactive: 1.1%. In the case of `COc1ccc(C(c2nnnn2C2CCCCC2)N2CCC(n3c(=O)[nH]c4ccccc43)CC2)cc1` (centres undefined), the inhibition is reported as inactive: -1.6%. With `CCN1CCC(Nc2cccc(F)c2)CC1` the inhibition was inactive: 9.9%. In the case of `CC(C)(C)n1nnnc1C(c1ccnc2ccccc12)N1CCC(n2c(=O)[nH]c3ccccc32)CC1` (centres undefined), the inhibition is reported as inactive: 2.9%. With `N#Cc1ccc(C(=O)NCC2(N3CCCCC3)CCCCC2)cc1` the inhibition was inactive: 3.3%. For `CC(C)(C)OC(=O)N1CCC(N(C(=O)c2ccccc2)c2ccc(Cl)cc2)CC1`, the inhibition was inactive: -4.5%. For `CC(C)(C)n1nnnc1C(c1cccc2ccccc12)N1CCC(n2c(=O)[nH]c3ccccc32)CC1` (centres undefined), the inhibition was inactive: -0.6%. In the case of `CN(C)C1(CNC(=O)c2cccc(C#N)c2)CCCCC1`, the inhibition is reported as inactive: -10.4%. With `c1ccc(CN2CCC(Nc3ccccc3)CC2)cc1` the inhibition was inactive: 4.4%. For `O=c1[nH]c2ccccc2n1C1CCN(C(c2ccccc2)c2nnnn2C2CCCC2)CC1` (centres undefined), the inhibition was inactive: -1.2%. For `CCCN1CCC(Nc2cc(OC)cc(OC)c2)CC1`, the inhibition was inactive: -106%. For `Cc1cc(N(CCCl)CCCl)ccc1C=O`, the inhibition was inactive: -14.6%. With `O=c1[nH]c2ccccc2n1C1CCN(C(c2cccs2)c2nnnn2C2CCCCC2)CC1` (centres undefined) the inhibition was inactive: 0.7%. `COc1ccc(C(=O)NCC2(N3CCOCC3)CCCCC2)cc1OC` was tested, and the inhibition was inactive: 0.8%. In the case of `O=c1[nH]c2ccccc2n1C1CCN(C(c2ccnc3ccccc23)c2nnnn2C2CCCC2)CC1` (centres undefined), the inhibition is reported as inactive: 11.8%. With `CCCCn1nnnc1C(c1ccccc1)N1CCC(n2c(=O)[nH]c3ccccc32)CC1` (centres undefined) the inhibition was inactive: 6.6%. `COc1cc(C(=O)NCC2(N3CCOCC3)CCCCC2)cc(OC)c1C` was tested, and the inhibition was inactive: 0.8%. With `O=C(NCC1(N2CCOCC2)CCCCC1)c1cc(Br)ccc1Cl` the inhibition was inactive: 6.1%. In the case of `O=C(OC1CN2CCC1CC2)C1c2ccccc2C=Cc2ccccc21` (centres undefined), the inhibition is reported as inactive: -1.3%. With `O=c1[nH]c2ccccc2n1C1CCN(C(c2cccs2)c2nnnn2C2CCCC2)CC1` (centres undefined) the inhibition was inactive: -1.1%. With `CCCCn1nnnc1C(c1cccc(OC)c1OC)N1CCC(n2c(=O)[nH]c3ccccc32)CC1` (centres undefined) the inhibition was inactive: 5.4%. `COc1cccc(C(c2nnnn2C(C)(C)C)N2CCC(n3c(=O)[nH]c4ccccc43)CC2)c1OC` (centres undefined) was tested, and the inhibition was inactive: -29.5%. `N/C(=N\O)c1c(N)no[n+]1[O-]` was tested, and the inhibition was inactive: -6.1%. For `COc1cc(OC)c(C(=O)NCC2(N(C)C)CCCCC2)cc1OC`, the inhibition was inactive: -25.8%. For `O=C(NCC1(N2CCOCC2)CCCCC1)c1cc(F)c(F)cc1Cl`, the inhibition was inactive: -5.9%. `CCC(c1nnnn1C(C)(C)C)N1CCC(n2c(=O)[nH]c3ccccc32)CC1` (centres undefined) was tested, and the inhibition was inactive: -1%. In the case of `CCCCn1nnnc1C(c1ccnc2ccccc12)N1CCC(n2c(=O)[nH]c3ccccc32)CC1` (centres undefined), the inhibition is reported as inactive: -6.3%. With `CC(C)c1ccc(NC2CCN(C(=O)OC(C)(C)C)CC2)cc1` the inhibition was inactive: -7.4%. For `CCCCn1nnnc1C(c1ccccc1OC(F)(F)F)N1CCC(n2c(=O)[nH]c3ccccc32)CC1` (centres undefined), the inhibition was inactive: -4.6%. `COc1ccc(CN(CCCl)CCCl)cc1Cl` was tested, and the inhibition was inactive: 2.3%. In the case of `CN(C)c1cccc(C(=O)NCC2(N3CCCCC3)CCCCC2)c1`, the inhibition is reported as inactive: -0.9%. `COc1ccc(C(c2nnnn2C2CCCC2)N2CCC(n3c(=O)[nH]c4ccccc43)CC2)cc1` (centres undefined) was tested, and the inhibition was inactive: 16%. For `Cc1ccc(C(=O)NCC2(N(C)C)CCCCC2)o1`, the inhibition was inactive: -2.3%. With `CCCOc1ccc(C(=O)NCC2(N(C)C)CCCCC2)cc1OC` the inhibition was inactive: 0.4%. `CN1CCC(Nc2cccc(F)c2)CC1` was tested, and the inhibition was inactive: -2.5%. With `O=C(NCC1(N2CCCCC2)CCCCC1)c1cncc(Br)c1` the inhibition was inactive: -3.1%. In the case of `O=c1[nH]c2ccccc2n1C1CCN(C(c2ccccc2OC(F)(F)F)c2nnnn2C2CCCC2)CC1` (centres undefined), the inhibition is reported as inactive: -0.8%. For `N#CC1(Nc2ccccc2)CCN(CCc2ccccc2)CC1`, the inhibition was inactive: 7.2%. For `CSc1ccc(C(=O)NCC2(N3CCOCC3)CCCCC2)cc1`, the inhibition was inactive: 15.5%. For `O=C(NCC1(N2CCCCC2)CCCCC1)c1cccc([N+](=O)[O-])c1`, the inhibition was inactive: 3.4%. In the case of `CC(C)(C)n1nnnc1C(c1ccccc1OC(F)(F)F)N1CCC(n2c(=O)[nH]c3ccccc32)CC1` (centres undefined), the inhibition is reported as inactive: 5.9%. With `O=C(NCC1(N2CCCCC2)CCCCC1)c1ccc(OC(F)F)cc1` the inhibition was inactive: 24.4%. For `COc1cc(C(=O)NCC2(N3CCCCC3)CCCCC2)ccc1OC(F)F`, the inhibition was inactive: 21%. `O=C(NCC1(N2CCOCC2)CCCCC1)c1cc(=O)[nH]c2ccccc12` was tested, and the inhibition was inactive: -1.7%. `CN1CCN(CCOC(=O)C(O)(c2ccccc2)c2ccccc2)CC1` was tested, and the inhibition was inactive: -0.1%. `COc1ccc(NC2CCN(C(=O)OC(C)(C)C)CC2)cc1` was tested, and the inhibition was inactive: -2.3%. In the case of `CC(C)c1ccc(C(=O)NCC2(N3CCOCC3)CCCCC2)cc1`, the inhibition is reported as inactive: -6.5%. `CCCCn1nnnc1C(c1cccc2ccccc12)N1CCC(n2c(=O)[nH]c3ccccc32)CC1` (centres undefined) was tested, and the inhibition was inactive: 0.8%. With `O=C(NCC1(N2CCCCC2)CCCCC1)c1cccc(C(F)(F)F)c1` the inhibition was inactive: 2.3%. `O=P1(N(CCCl)CCCl)SCCCS1` was tested, and the inhibition was inactive: -1.7%. With `CCCCn1nnnc1C(c1cc2ccccc2o1)N1CCC(n2c(=O)[nH]c3ccccc32)CC1` (centres undefined) the inhibition was inactive: 0.7%. In the case of `CCCCOc1ccc(C(=O)NCC2(N3CCOCC3)CCCCC2)cc1`, the inhibition is reported as inactive: 7.3%. With `O=C(NCC1(N2CCCCC2)CCCCC1)c1ccc(F)cc1` the inhibition was inactive: -5.7%. For `COc1ccc(NC2CCN(CCc3ccccc3)CC2)c(OC)c1`, the inhibition was inactive: -17%. `CCOC(=O)N1CCC(Nc2ccc(F)cc2)CC1` was tested, and the inhibition was inactive: -0.2%. In the case of `CC(C)(C)n1nnnc1C(c1ccccc1)N1CCC(n2c(=O)[nH]c3ccccc32)CC1` (centres undefined), the inhibition is reported as inactive: 9.7%. With `O=C1CCN(Cc2ccccc2)CC1` the inhibition was inactive: 2.3%. `CCOc1ccc(C)cc1CN(CCCl)CCCl` was tested, and the inhibition was inactive: 0.9%. In the case of `COc1cc(C(=O)NCC2(N(C)C)CCCCC2)ccc1OC(F)F`, the inhibition is reported as inactive: 15.8%. In the case of `O=c1[nH]c2ccccc2n1C1CCN(C(c2cccc3ccccc23)c2nnnn2C2CCCC2)CC1` (centres undefined), the inhibition is reported as inactive: 4.6%. `O=c1[nH]c2ccccc2n1C1CCN(C(c2ccccc2)c2nnnn2C2CCCCC2)CC1` (centres undefined) was tested, and the inhibition was inactive: -0.1%. With `CSc1ccccc1C(=O)NCC1(N2CCCCC2)CCCCC1` the inhibition was inactive: -11.2%. For `Cc1cccc(NC2(C#N)CCN(Cc3ccccc3)CC2)c1`, the inhibition was inactive: 2.1%. In the case of `COc1ccc(C(=O)NCC2(N3CCCCC3)CCCCC2)cc1`, the inhibition is reported as inactive: 9.4%. In the case of `COc1ccc(C(=O)NCC2(N3CCCCC3)CCCCC2)c(OC)c1OC`, the inhibition is reported as inactive: 1.4%. For `CC(C)(C)OC(=O)N1CCC(N(C(=O)c2ccccc2)c2ccc(F)cc2)CC1`, the inhibition was inactive: -23.2%. With `CCC(c1nnnn1C1CCCC1)N1CCC(n2c(=O)[nH]c3ccccc32)CC1` (centres undefined) the inhibition was inactive: 6.8%. For `O=C(NCC1(N2CCCCC2)CCCCC1)c1ccc(=O)[nH]c1`, the inhibition was inactive: -4.1%. For `CCCCn1nnnc1C(CC)N1CCC(n2c(=O)[nH]c3ccccc32)CC1` (centres undefined), the inhibition was inactive: 0.9%. For `O=C(NCC1(N2CCCCC2)CCCCC1)c1cccs1`, the inhibition was inactive: -11.8%. With `CCCCn1nnnc1C(c1cccs1)N1CCC(n2c(=O)[nH]c3ccccc32)CC1` (centres undefined) the inhibition was inactive: 0.3%. For `O=C(NCC1(N2CCCCC2)CCCCC1)c1ccc(Cl)s1`, the inhibition was inactive: -14.1%. In the case of `O=C(OC1CN2CCC1CC2)C1c2ccccc2Oc2ccccc21` (centres undefined), the inhibition is reported as inactive: -0.1%. `O=c1[nH]c2ccccc2n1C1CCN(C(c2cc3ccccc3o2)c2nnnn2C2CCCCC2)CC1` (centres undefined) was tested, and the inhibition was inactive: -5.5%. For `COc1ccc(Cl)cc1C(=O)NCC1(N2CCOCC2)CCCCC1`, the inhibition was inactive: 0.1%. With `CCOC(=O)N1CCC(Nc2ccc(OC)cc2)CC1` the inhibition was inactive: -5.4%. `CCCCn1nnnc1C(c1ccc(OC)cc1)N1CCC(n2c(=O)[nH]c3ccccc32)CC1` (centres undefined) was tested, and the inhibition was inactive: -9.9%. In the case of `O=C(NCC1(N2CCCCC2)CCCCC1)c1ccc(Cl)nc1`, the inhibition is reported as inactive: 0.6%. `O=c1[nH]c2ccccc2n1C1CCN(C(c2ccccc2OC(F)(F)F)c2nnnn2C2CCCCC2)CC1` (centres undefined) was tested, and the inhibition was inactive: 0.8%. In the case of `Cc1cc(C)cc(N(C(=O)c2ccccc2)C2CCN(C(=O)OC(C)(C)C)CC2)c1`, the inhibition is reported as inactive: 2.6%. For `O=C(NCC1(N2CCOCC2)CCCCC1)c1cc2ccccc2o1`, the inhibition was inactive: -3.8%.
